Reference: patent US6110888A, “Substituted phenols as fragrance, flavor and antimicrobial compounds” (Takasago International Corporation, priority 1999, dated 2000)

Assay: Odor qualities by expert panel of perfumers
Settings: neat or in solution on perfume blotters; approximately 25 perfumers

SMILES | Odor Qualities
C=CCc1cc(C(C)(C)C)ccc1O [Example 5, Ortho Allyl Para tert-Butyl Phenol] | leathery, woody, herbal
CCCc1cc(C(C)(C)C)ccc1O [Example 6, Ortho Propyl Para tert-Butyl Phenol] | woody, rubbery, floral
